Laboratory results published in paper PMC9318713.

Target: T1, ancrod (recombinant SVSP) (UniProt P26324)
T1 sequence (looked up, limits assumed): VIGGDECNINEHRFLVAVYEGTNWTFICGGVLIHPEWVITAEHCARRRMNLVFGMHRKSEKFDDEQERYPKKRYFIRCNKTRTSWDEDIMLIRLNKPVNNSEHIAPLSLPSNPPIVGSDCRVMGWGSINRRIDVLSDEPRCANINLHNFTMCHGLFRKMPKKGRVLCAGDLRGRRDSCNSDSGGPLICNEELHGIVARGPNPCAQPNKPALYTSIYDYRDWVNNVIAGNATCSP
Experiment: fluorescence bead binding assay
Conditions: 2 mM Mg2+, high Kd, no value, Kd: 50 mM Tris-HCl pH 7.5, 150 mM NaCl, 2 mM MgCl2, RT, 1 h, toxin on Sepharose beads, ALISA: 100 ng toxin coated, aptamer in nuclease-free water, 2 h, PBST washes, recombinant protein, label: 6-FAM, single-stranded DNA

Sequence	binding result
TAGTAACAGGTCTGCTTAGGCTTGCGAGGAATACTAGTAC [ancrod-48 (printed ncrod-48)]	binds more weakly
TATTAAGGGACTGCTCGGGATTGCGGATATAGGTATGAGC [ancrod-30]	binds more weakly
GGTGCGTTTCACCTCGAGTTTACGATAAATCACCTTCGAG [ancrod-25]	binds more weakly
ACGCTTGATCCTCCGAAATGTCCTGATCCTCGGCCTGTCA [ancrod-5]	binds more weakly
TGCTCACACGTCCTGTGTGATTATGTCAGGCATTCACATG [ancrod-1]	binds more weakly
TGCTGGGAAATCCTCCCATTATGTCAGTATGTCTCGACAT [ancrod-2]	binds more weakly
TTGGGCCCTCTAGTGATGGATATCTGCAGAATTCGCCCTT [ancrod-32]	binds more weakly
TGTCTGGTTTGCAAAGGACTGCTGTACTGTTAGCTTTTGT [ancrod-18]	binds more weakly
GTGTATTGTGATAGTCGGTAATTCCCTGACTACGCCGTAT [ancrod-31]	binds more weakly
GTAAATTGTACAGGTGTATGGATTGCTAGGTCTGCTGGTT [ancrod-12]	binds more weakly

For at least one entry, the source does not settle the construct or the ends of the probe. Weaker means in comparison with the reference protein, sequence or condition of that experiment. At least one verdict rests on a figure or table, not on a statement of the authors. Tags and fusion partners may be left off the protein sequences shown.
